Experimental data: patent US10189878B2, “Ebolavirus pre-hairpin intermediate mimics and methods of use” (priority 2014, dated 2019)

What was measured:
eboIZN39IQ = eboIZN39IQ (Zaire ebolavirus, UniProt Q05320); assay: SPR binding of ebolavirus C-peptides to N-trimer mimic eboIZN39IQ (ProteOn XPR36); conditions: SPR kinetic fit, pH 5.8, RT
D-eboIZN39IQ(D3) = D-eboIZN39IQ(D3) (Zaire ebolavirus, UniProt Q05320, A568D/A575D/A589D); conditions: SPR Biacore 3000

SMILES | kd for binding to eboIZN39IQ (eboIZN39IQ) | Binding to D-eboIZN39IQ(D3) (D-eboIZN39IQ(D3))
CC[C@H](C)[C@H](NC(=O)[C@H](C)NC(=O)[C@H](CS)NC(=O)[C@H](CC(=O)O)NC(=O)[C@@H]1CCCN1C(=O)CNC(=O)[C@H](CC(C)C)NC(=O)[C@@H](NC(=O)[C@H](Cc1c[nH]cn1)NC(=O)[C@H](CS)NC(=O)[C@@H](NC(=O)CNC(=O)CNC(=O)[C@H](Cc1c[nH]c2ccccc12)NC(C)=O)[C@@H](C)O)[C@@H](C)CC)C(=O)N[C@@H](CCC(=O)O)C(=O)N1CCC[C@H]1C(=O)N[C@@H](Cc1c[nH]cn1)C(=O)N[C@@H](CC(=O)O)C(=O)N[C@@H](Cc1c[nH]c2ccccc12)C(=O)N[C@H](C(=O)N[C@@H](CCCCN)C(=O)N[C@@H](CC(N)=O)C(=O)N[C@H](C(=O)N[C@H](C(=O)N[C@@H](CC(=O)O)C(=O)N[C@@H](CCCCN)C(=O)N[C@H](C(=O)N[C@@H](CC(=O)O)C(=O)N[C@@H](CCC(N)=O)C(=O)N[C@H](C(=O)N[C@H](C(=O)N[C@@H](Cc1c[nH]cn1)C(=O)N[C@@H](CC(=O)O)C(=O)N[C@@H](Cc1ccccc1)C(=O)N[C@H](C(=O)N[C@@H](CC(=O)O)C(=O)N[C@@H](CCCCN)C(N)=O)C(C)C)[C@@H](C)CC)[C@@H](C)CC)[C@@H](C)CC)[C@@H](C)O)[C@@H](C)CC)[C@@H](C)O | 0.014 s⁻¹ | –
CC[C@@H](C)[C@@H](NC(=O)[C@@H](C)NC(=O)[C@@H](CS)NC(=O)[C@@H](CC(=O)O)NC(=O)[C@H]1CCCN1C(=O)CNC(=O)[C@@H](CC(C)C)NC(=O)[C@H](NC(=O)[C@@H](Cc1c[nH]cn1)NC(=O)[C@@H](CS)NC(=O)[C@H](NC(=O)CNC(=O)CNC(=O)[C@@H](Cc1c[nH]c2ccccc12)NC(C)=O)[C@H](C)O)[C@H](C)CC)C(=O)N[C@H](CCC(=O)O)C(=O)N1CCC[C@@H]1C(=O)N[C@H](Cc1c[nH]cn1)C(=O)N[C@H](CC(=O)O)C(=O)N[C@H](Cc1c[nH]c2ccccc12)C(=O)N[C@@H](C(=O)N[C@H](CCCCN)C(=O)N[C@H](CC(N)=O)C(=O)N[C@@H](C(=O)N[C@@H](C(=O)N[C@H](CC(=O)O)C(=O)N[C@H](CCCCN)C(=O)N[C@@H](C(=O)N[C@H](CC(=O)O)C(=O)N[C@H](CCC(N)=O)C(=O)N[C@@H](C(=O)N[C@@H](C(=O)N[C@H](Cc1c[nH]cn1)C(=O)N[C@H](CC(=O)O)C(=O)N[C@H](Cc1ccccc1)C(=O)N[C@@H](C(=O)N[C@H](CC(=O)O)C(=O)N[C@H](CCCCN)C(N)=O)C(C)C)[C@H](C)CC)[C@H](C)CC)[C@H](C)CC)[C@H](C)O)[C@H](C)CC)[C@H](C)O | – | No binding
